Compound potency records, mixed from different reports. Data source: NIAID ChemDB in PubChem.

All rows: target-level tests; organism: Hepatitis C virus

ICn is the concentration giving n% inhibition. a–b is a range or a potency band. Blank or dashed fields: not listed here. Lines come from different laboratories, so protocols vary. Percent inhibition refers to the dose given; in toxicity tests it is the harm to the cells.

compound,target,measure,dose,value
O=C(Nc1ccccc1)Nc1ccccc1-c1nc(C(=O)O)c(O)c(=O)[nH]1,HCV polymerase,IC50,,<100 µM
Cc1ccc(S(=O)(=O)Nc2cc(-c3ccc(S(C)(=O)=O)cc3)sc2C(=O)O)c(C)c1,NS3 ATPase,IC50,,<5 µM
CCc1cc2c(C(=O)NC)c(-c3ccc(F)cc3)oc2cc1N(CCF)S(C)(=O)=O,Nonstructural protein 5B,IC50,,≤0.5 µM
COC(=O)c1nc(-c2cscc2NC(=O)NS(=O)(=O)c2ccccc2Cl)[nH]c(=O)c1O,HCV polymerase,IC50,,<50 µM
O=C(O)c1ccc2c(c1)nc(-c1ccc3nc(-c4ccc(-c5ccccc5)cc4)ccc3c1)n2C1CCCCC1,NS5B polymerase,inhibition,100 µM,92.52%
CNC(=O)c1c(-c2ccc(F)cc2)oc2cc(N(C)S(C)(=O)=O)c(OCc3nnnn3C)cc12,Nonstructural protein 5B,IC50,,≤0.5 µM
Cc1ccc(C(=O)Nc2cccc(-c3nc(C(=O)O)c(O)c(=O)[nH]3)c2)s1,HCV polymerase,IC50,,<100 µM
O=C(O)c1cc2nc(-c3cccc(Cl)c3)cc(-c3ccc(Cl)cc3Cl)n2n1,RNA-dependent RNA polymerase,IC50,,>10 µM
Cc1cccc(-c2nc(C(=O)O)c(O)c(=O)[nH]2)c1,HCV polymerase,IC50,,<100 µM
COc1cc(-c2cc(-c3ccc(C(F)(F)F)cc3)nc3cc(C(=O)O)nn23)ccc1Cl,RNA-dependent RNA polymerase,IC50,,>10 µM
CN1CCN(C(=O)c2ccc3c(c2)nc(-c2cc4ccc(-c5ccccc5-c5ccccc5)nc4cc2F)n3C2CCCCC2)CC1,NS5B polymerase,inhibition,100 µM,74.23%
O=C(NCc1cscn1)Nc1cscc1-c1nc(C(=O)O)c(O)c(=O)[nH]1,HCV polymerase,IC50,,<25 µM
COc1cccc(-c2nc3ccc(-c4nc5cc(C(=O)O)ccc5n4C4CCCCC4)cc3nc2-c2cccc(OC)c2)c1,NS5B polymerase,inhibition,33 µM,96.17%
CCc1ccc(-c2cc(NS(=O)(=O)c3ccccc3C)c(C(=O)O)s2)cc1,NS3 ATPase,IC50,,<5 µM
O=C(O)c1cnn2c(C3CCCCC3)c(-c3ccc(OCc4ccccc4)c(F)c3)cnc12,RNA-dependent RNA polymerase,IC50,,1–10 µM
O=C(O)c1ccc2c(c1)nc(-c1ccc3nc(-c4cccc(OCCCN5CCCC5)c4)ccc3c1)n2C1CCCCC1,NS5B polymerase,inhibition,33 µM,93.43%
CNC(=O)c1c(-c2ccc(F)cc2)oc2cc(N(Cc3ccc(OC)cc3)S(C)(=O)=O)c(OCc3ccc(OC)cc3)cc12,Nonstructural protein 5B,IC50,,≤0.5 µM
COc1ccc(-c2ccc(OC)cc2-c2ccc3cc(-c4nc5cc(C(=O)O)ccc5n4C4CCCCC4)ccc3n2)cc1,NS5B polymerase,inhibition,100 µM,99.12%
CC(=O)C(=O)C(=O)Nc1cnn2c(C3CCCCC3)c(-c3ccc(OCc4ccccc4)cc3)cnc12,RNA-dependent RNA polymerase,IC50,,>10 µM
CCOc1cc(-c2ccccc2)nc2ccc(-c3nc4cc(C(=O)O)ccc4n3C3CCCCC3)cc12,NS5B polymerase,inhibition,100 µM,99.18%
CC(C)N(C(=O)c1ccc(F)cc1)c1cc(-c2ccccc2)sc1C(=O)O,NS3 ATPase,IC50,,5–20 µM
c1ccc(Oc2cccc(-c3cnc4c(-c5nn[nH]n5)cnn4c3C3CCCCC3)c2)nc1,RNA-dependent RNA polymerase,IC50,,1–10 µM
COc1ccc(C(=O)N(C)c2cc(-c3ccccc3)sc2C(=O)O)cc1OC,NS3 ATPase,IC50,,>20 µM
COc1ccc(-c2ccc(CN)cc2)c(-c2ccc3cc(-c4nc5cc(C(=O)O)ccc5n4C4CCCCC4)ccc3n2)c1,NS5B polymerase,inhibition,33 µM,95.54%
O=C(O)c1nc(-c2cccc(OCc3c(Cl)cccc3Cl)c2)[nH]c(=O)c1O,HCV polymerase,IC50,,<100 µM
CC(C)Cc1ccc(-c2cc(NS(=O)(=O)c3ccc(Br)cc3F)c(C(=O)O)s2)cc1,NS3 ATPase,IC50,,5–20 µM
O=C(NC(Cc1cnc[nH]1)C(=O)O)c1ccc2c(c1)nc(-c1ccc3nc(-c4ccccc4)cnc3c1)n2C1CCCCC1,NS5B polymerase,inhibition,100 µM,94.24%
O=C(O)c1cnn2c(-c3cccc(-c4ccccc4Oc4ccccc4)c3)ccnc12,RNA-dependent RNA polymerase,IC50,,1–10 µM
CNC(=O)c1c(-c2ccc(F)cc2)oc2cc(C3CCCN3C(N)=O)c(OC)cc12,Nonstructural protein 5B,IC50,,≤0.5 µM
O=C(NCc1cccc(Cl)c1)Nc1ccsc1-c1nc(C(=O)O)c(O)c(=O)[nH]1,HCV polymerase,IC50,,<25 µM
c1ccc(-c2cnc3c(-c4nn[nH]n4)cnn3c2-c2ccccc2)cc1,RNA-dependent RNA polymerase,IC50,,>10 µM

A second listing of 2 rows from above:

compound,target,measure,dose,value
CC(C)N(C(=O)c1ccc(F)cc1)c1cc(-c2ccccc2)sc1C(=O)O,NS3 ATPase,IC50,,5–20 µM
COc1cc(-c2cc(-c3ccc(C(F)(F)F)cc3)nc3cc(C(=O)O)nn23)ccc1Cl,RNA-dependent RNA polymerase,IC50,,>10 µM